Compound potency records, mixed from different reports. Data source: NIAID ChemDB in PubChem.

Shared fields: whole-cell or culture tests; agent: Mycobacterium bovis; measure: MIC

Conditions beyond the fields shown may differ between rows. Blank or dashed fields: not listed here. Two numbers with a dash give a range or band.

SMILES,strain,read by,result
CCCCCCCCOC1COc2nc([N+](=O)[O-])cn2C1,rBCG-lux,-,2 µg/mL
COc1cc(CC(C)C(C)Cc2ccc(O)c(OC)c2)ccc1O,BCG,resazurin,256 µM
CCc1cc(C(N)=S)ccn1,BCG (PMV261::KASA),-,2 µg/mL
CCOC(=O)c1ccc(NC(=O)Nc2ccc3c(c2)C(C)(C)CC(C)(C)S3)cc1,BCG,-,20–40 µg/mL
O=[N+]([O-])c1cn2c(n1)OCCC2,rBCG-lux,-,>50 µg/mL
C[C@]1(COc2ccc(N3CCC(Oc4ccc(OC(F)(F)F)cc4)CC3)cc2)Cn2cc([N+](=O)[O-])nc2O1,BCG Montreal,-,0.006 µg/mL
CC(C)CCOc1ccc(NC(=S)Nc2ccc(OCCC(C)C)cc2)cc1,BCG (PMV261::KASB),-,0.25 µg/mL
COC(=O)c1ccc(C(=O)Oc2ccc3c(c2)OC(C)(C)C=C3C)cc1,BCG,-,2–4 µg/mL
C/C=C/C/C=C/CCC(=O)[C@H]1O[C@H]1C(N)=O,BCG (PMV261),-,0.2–0.4 µg/mL
CC1=CC(C)(C)N(C)c2ccc(NC(=S)Nc3ccc([N+](=O)[O-])cc3)cc21,BCG,-,20–40 µg/mL
COc1cc(OC)c(C(=O)CCc2ccccc2)c(OC)c1,BCG,resazurin,>256 µM
NNC(=O)c1ccncc1,BCG (PMV261::KASA),-,0.07 µg/mL
CC(C)CSc1ccc(NC(=S)Nc2ccc(SCC(C)C)cc2)cc1,BCG,-,0.06 µg/mL
CCCCCCCCOC1CCn2cc([N+](=O)[O-])nc2OC1,rBCG-lux,-,5 µg/mL
C=C/C(C)=C/[C@@]1(C)SC(=O)C(C)=C1O,BCG (PMV261::KASB),-,100 µg/mL
CCOC(=O)c1ccc(NC(=S)Nc2cccc3c2OC(C)(C)CC3(C)C)cc1,BCG,-,20–40 µg/mL
CCCSc1ccc(NC(=S)Nc2ccc(OCCC(C)C)cc2)cc1,BCG,-,1.5 µg/mL

2 of the rows above, restated:

SMILES | strain | read by | result
CC(C)CCOc1ccc(NC(=S)Nc2ccc(OCCC(C)C)cc2)cc1 | BCG (PMV261::KASB) | - | 0.25 µg/mL
NNC(=O)c1ccncc1 | BCG (PMV261::KASA) | - | 0.07 µg/mL